Here are results for two molecules from publication PMC9701186 (Nature Communications, 2022).

What is called Kd is the constant that tells how readily two partners part at equilibrium. High values mean weaker binding, low ones tighter binding.

The target in test [1] is CCHFV strain Kosovo/Hoti GP38 (CCHFV, strain Kosovo/Hoti, strain). In words: BLI.
The target in a further test is CCHFV strain Afg-09 GP38 (CCHFV, strain Afg09, UniProt E5FEZ4, strain). In words: BLI. In general terms: BLI is a label-free optical method that tracks binding on a fibre tip over time.
Another test concerns the target CCHFV Kosovo/Hoti GP38 (CCHFV, strain Kosovo/Hoti, strain). In words: SPR. For orientation: SPR reads the build-up and loss of mass on a sensor chip optically.

B1: human chimeric 13G8 mAb (c13G8) (antibody, V domains shown)
VH: DVQLQQSGPGLVAPSQSLSITCTVSGFSLTNYGIHWVRQPPGKGLEWLGVIWAGGYTKYNSALMSRLSMSKDNSKSQVFLKMNSLQTDDTAMYYCARDEVRRDYYAMDHWGQGTTVTVSS
VL: DIQMTQSPAILSASPGEKVTMTCWASSGVSYMHWYQQKPGSSPKPWIFATSNLASGVPARFSGSGSGTSYSLTISRVEAEDAATYYCQQWSFNPLTFGAGTKLEIK
notes: copies: 2 + 2
Regarding B1, the Kd in test [1] worked out at 0.557 nM; with CCHFV strain Afg-09 GP38, 0.492 nM.

B2: human chimeric 13G8 mAb (c13G8) (antibody, V domains shown)
VH: B1 VH
VL: B1 VL
notes: source: Expi293 cells, purified (mAb Select Sure column)
In the test with CCHFV Kosovo/Hoti GP38, B2 had a Kd of 1.7 nM.
